A mixed list of measured activities; the numbers were collected in NIAID ChemDB.

Common to all: tests in culture; species: HIV-1; measure: EC50

Lines come from different laboratories, so protocols vary. An empty or dashed field is not shown. ECn: concentration that inhibits the pathogen or its effect by n%.

compound,mutations,cell line,strain,read by,result
CCc1c(Cc2ccccc2C)n(COCC#Cc2ccc(NC(=O)CBr)cc2)c(=O)[nH]c1=O,WT,MT-4,IIIB,MTT,0.07 µM
CN1c2ccccc2C2C1C=C(C#N)C(=O)N2c1ccc([N+](=O)[O-])cc1,-,C8166-45,B-HXB2,GFP / fluorescence,170 µM
CCC1=C(C(=O)c2ccccc2)C(c2cccc(O)c2)NC(=O)N1,-,CEM,-,p24 / ELISA,>5 µM
C[C@]1(CO)O[C@@H](n2cnc3c(N)ncnc32)C[C@@H]1O,M184V (delta)Env,HOS,-,luciferase,>10 µM
Cc1cn([C@H]2C[C@H](N=[N+]=[N-])[C@@H](CO)O2)c(=O)[nH]c1=O,-,MT-4,Clinical isolate,MTT,0.0168 µg/mL
CCC1=C(C(=O)OCC2CCCCC2)C(c2ccc([N+](=O)[O-])c([N+](=O)[O-])c2)NC(=O)N1,-,CEM,-,p24 / ELISA,≤1 µM
CCc1c(Cc2cc(C)cc(C)c2)n(COCC#Cc2cnccn2)c(=O)[nH]c1=O,WT,MT-4,IIIB,MTT,0.02 µM
CCC1=C(C(=O)OCC2CCCCC2)C(c2cc(N)ccc2F)NC(=O)N1,-,CEM,-,p24 / ELISA,≤1 µM
CC(C)CN(C[C@@H](O)[C@H](Cc1ccccc1)NC(=O)O[C@H]1CO[C@H]2OCC[C@H]21)S(=O)(=O)c1ccc(-c2csc(NCCCN(C)C)n2)cc1,PR-L010F M046I M071V I084V,MT-4,-,cytopathic effect / MTT,2.528 µM
O=C1Nc2ccc(Cl)cc2[C@@](C#CC2CC2)(C(F)(F)F)O1,-,HEK293T,p8.9,luciferase,2.73 nM
CCc1c(Cc2cc(C)cc(C)c2)n(COCC#Cc2cccc(CO)c2)c(=O)[nH]c1=O,Y181C,MT-4,IIIB,MTT,1.6 µM
C=C1CN(S(=O)(=O)c2ccc(C)cc2)CCCN(Cc2ccccc2)CCCN(S(=O)(=O)c2ccc(C)cc2)C1,-,SupT1,IIIB,cytopathic effect,1.5 µM
CN1N=C(N)c2cn([C@@H]3O[C@H](COP(=O)(O)O)[C@@H](O)[C@H]3O)c3ncnc1c23,-,H9,IIIB,p24,0.02 µM
Nc1ccn([C@H]2S[C@@H](CO)C=C2F)c(=O)n1,-,PBMC,BRU-184V,PCR,<65.8 µM
CCc1c(Cc2cc(Cl)cc(Cl)c2)n(COC2Cc3ccccc3C2)c(=O)[nH]c1=O,RT-K103N Y181C,MT-4,NNRTI-resistant (RT K103N Y181C) A17,cytopathic effect / MTT,>10 µM
Clc1cc(CN2CCCNCCNCCCNCC2)cc(Cl)n1,-,PBMC,R5 clinical isolate #1,p24,7.3 µM
CCC1=C(C(=O)OCC2CCCCC2)C(Cc2ccccc2)NC(=O)N1,-,CEM,-,p24 / ELISA,>5 µM
Nc1nc(NC2CC2)c2ncn([C@H]3CO[C@@H](CO)O3)c2n1,-,MT-2,HXB2 Recombinant,RT activity,0.053 µM
CC(C)CN(C[C@@H](O)[C@H](Cc1ccccc1)NC(=O)O[C@H]1CO[C@H]2OCC[C@H]21)S(=O)(=O)c1ccc(-c2coc(-c3cccs3)n2)cc1,-,MT-4,LAI,cytopathic effect / MTT,0.01 µM
CCc1c(Cc2cc(C)cc(C)c2)n(COC/C(Br)=C(\Br)c2ccccc2)c(=O)[nH]c1=O,WT,MT-4,IIIB,MTT,0.07 µM
CCC1=C(C(=O)OCC2CCCCC2)C(c2ccc(OC(O)[C@H](C)NC(=O)OC(C)(C)C)c(Cl)c2)NC(=O)N1,-,CEM,-,p24 / ELISA,≤1 µM
CC(C)CN(C[C@@H](O)[C@H](Cc1ccccc1)NC(=O)O[C@H]1CO[C@H]2OCC[C@H]21)S(=O)(=O)c1ccc(-c2cnc(NC(=O)O[C@H]3CO[C@H]4OCC[C@H]43)[nH]2)cc1,PR-L010F M046I M071V I084V,MT-4,-,cytopathic effect / MTT,0.52 µM
CC(C)=CCOc1cc(NC(=S)c2ccoc2C)ccc1Cl,RT-K103N,CEM,IIIB,syncytia,0.069 µM
CC(C)Cc1nc(-c2ccc(S(=O)(=O)N(CC(C)C)C[C@@H](O)[C@H](Cc3ccccc3)NC(=O)O[C@H]3CO[C@H]4OCC[C@H]43)cc2)co1,-,MT-4,LAI,cytopathic effect / MTT,0.008 µM
CCc1c(Cc2ccccc2C)n(COC/C(Br)=C(\Br)c2ccccc2)c(=O)[nH]c1=O,EFV-resistant (K103R V179D P225H),MT-4,IIIB,MTT,>26 µM
C#CCOCn1c(Cc2cc(Cl)cc(Cl)c2)c(CC)c(=O)[nH]c1=O,-,MT-4,IIIB,cytopathic effect / MTT,0.02 µM
CC(C)CN(C[C@@H](O)[C@H](Cc1ccccc1)NC(=O)O[C@H]1CO[C@H]2OCC[C@H]21)S(=O)(=O)c1ccc(-c2coc(-c3ccco3)n2)cc1,-,MT-4,LAI,cytopathic effect / MTT,0.004 µM
CC1CC(C)CN(S(=O)(=O)c2ccccc2[N+](=O)[O-])C1,-,HeLa,83-2/B1-T20r,GFP / fluorescence,0.22 µM
CCC1=C(C(=O)CCC2CCCCCC2)[C@H](c2ccc(OC(C)=O)c(Cl)c2)NC(=O)N1,-,CEM,-,p24 / ELISA,≤1 µM
Cc1cc(Br)cc(C)c1OCC(=O)N[C@@H](Cc1ccccc1)[C@H](O)CN(CC(C)C)S(=O)(=O)c1ccc(-c2csc(Nc3ccncc3)n2)cc1,-,MT-4,LAI,cytopathic effect / MTT,20 µM
CC(C)OC(=O)c1cc(NC(=S)OC(C)C)ccc1Cl,RT-E138K,CEM,IIIB,syncytia,1.24 µM
CCCc1nc(-c2ccc(S(=O)(=O)N(CC(C)C)C[C@@H](O)[C@H](Cc3ccccc3)NC(=O)O[C@H]3CO[C@H]4OCC[C@H]43)cc2)co1,-,MT-4,LAI,cytopathic effect / MTT,0.004 µM
CCC1=C(C(=O)OCC2CCCCC2)[C@H](c2ccc(OC(=O)c3ccncc3)cc2)NC(=O)N1,-,CEM,-,p24 / ELISA,≤1 µM
CCc1c(Cc2cc(C)cc(C)c2)n(COCC#Cc2cccc(C#N)c2)c(=O)[nH]c1=O,EFV-resistant (K103R V179D P225H),MT-4,IIIB,MTT,7.5 µM
C=C(C)COCn1c(Cc2cc(Cl)cc(Cl)c2)c(CC)c(=O)[nH]c1=O,RT-Y181C,MT-4,NNRTI-resistant (RT Y181C) N119,cytopathic effect / MTT,>10 µM
COC[C@@H](c1ccc(C(F)(F)F)cc1)N1CCN(C2(C)CCN(C(=O)c3c(C)ncnc3C)CC2)C[C@@H]1C,G514V V535M,TZM-bl,R14/S,-,0.0024 µM
CCc1c(Cc2cc(Cl)cc(Cl)c2)n(COCC=C(C)C)c(=O)[nH]c1=O,-,MT-4,IIIB,cytopathic effect / MTT,0.05 µM
Cc1cccc(C)c1OCC(=O)N[C@@H](Cc1ccccc1)[C@H](O)CN(CC(C)C)S(=O)(=O)c1ccc(-c2ccnn2Cc2ccccc2)cc1,-,MT-4,LAI,cytopathic effect / MTT,6.31 µM

Repeating the first 2 entries:

compound | mutations | cell line | strain | read by | result
CCc1c(Cc2ccccc2C)n(COCC#Cc2ccc(NC(=O)CBr)cc2)c(=O)[nH]c1=O | WT | MT-4 | IIIB | MTT | 0.07 µM
CN1c2ccccc2C2C1C=C(C#N)C(=O)N2c1ccc([N+](=O)[O-])cc1 | - | C8166-45 | B-HXB2 | GFP / fluorescence | 170 µM